{"source": "patent US8158670B2", "about": "(priority 1996, dated 2012)", "key": {"[1]": {"tested_on": "BO54 marker-positive smooth muscle cells", "test": "MTT metabolic activity after 24 hours exposure", "type": "cell-based, baboon", "settings": "treated for 24 hours in vitro, overnight recovery"}, "[2]": {"tested_on": "target (BO54 and M14) and non-target (HT29) cells", "test": "MTT metabolic activity after 24 hours exposure, target and non-target cells", "type": "cell-based", "settings": "24-hour incubation, 16-18 hours recovery"}, "[3]": {"tested_on": "HT29 marker-negative cells", "test": "Protein synthesis (3H-leucine) after 5 minute pulse", "type": "cell-based"}, "[4]": {"tested_on": "A375 m/m marker-positive cells", "test": "Protein synthesis (3H-leucine) after 5 minute pulse", "type": "cell-based, human"}, "[5]": {"tested_on": "BO54 arterial smooth muscle cells", "test": "Protein synthesis (3H-leucine) after 5 minute pulse", "type": "cell-based, baboon"}, "[6]": {"tested_on": "BO54 marker-positive smooth muscle cells", "test": "MTT metabolic activity 48 hours after 5 minute pulse", "type": "cell-based, baboon", "settings": "48 hour recovery period"}, "[7]": {"tested_on": "target cell (BO54 and A375) or non-target cell (HT29)", "settings": "5 minute exposure, 48 hours recovery; conjugates at the lower doses"}, "[8]": {"settings": "short-term, 3H-leucine for 4 hours immediately after"}}, "data": [{"substance": "Roridin A", "values": [{"measurement": "cytotoxicity (MTT metabolic activity)", "setting": "[1]", "value": "undesirable cytotoxicity"}, {"measurement": "metabolic activity measured in the MTT assay", "setting": "[2]", "value": "significantly decreased"}, {"measurement": "protein synthesis (3H-leucine incorporation)", "setting": "[3]; short-term and long-term effects", "value": "dose-response inhibition of cellular protein synthesis"}, {"measurement": "protein synthesis (3H-leucine incorporation)", "setting": "[3]; [8]", "value": "nonspecifically cytotoxic"}, {"measurement": "protein synthesis (3H-leucine incorporation)", "setting": "[4]; long-term, 16-18 hour recovery period before 3H-leucine", "value": "manifest even after a 16-18 hour recovery period"}, {"measurement": "protein synthesis (3H-leucine incorporation)", "setting": "[4]; [8]", "value": "non-specifically inhibitory to test cells"}, {"measurement": "protein synthesis", "setting": "[5]; long-term, 50 ng/ml", "value": "98 % of control"}, {"measurement": "protein synthesis", "setting": "[5]; long-term, 100 ng/ml", "value": "46 % of control"}, {"measurement": "protein synthesis", "setting": "[5]; long-term, 200 ng/ml", "value": "27 % of control"}, {"measurement": "protein synthesis", "setting": "[5]; short-term, 50 ng/ml", "value": "90 % of control"}, {"measurement": "protein synthesis", "setting": "[5]; short-term, 100 ng/ml", "value": "66 % of control"}, {"measurement": "protein synthesis", "setting": "[5]; short-term, 200 ng/ml", "value": "60 % of control"}, {"measurement": "metabolic activity (MTT)", "setting": "[6]", "value": "non-specifically cytotoxic"}, {"measurement": "metabolic activity (MTT) over the long-term", "setting": "[7]", "value": "non-specifically inhibitory to target and non-target cell types"}]}]}
